Compound potency records, mixed from different reports. Data source: NIAID ChemDB in PubChem.

All rows: growth or infection tests; agent: HIV-1; method: cytopathic effect / MTT; endpoint: fold resistance

An empty or dashed field is not shown. Fold resistance: result on the changed form divided by that on wild type. Rows are shuffled and stem from different studies.

structure | mutations | cell line | strain | result
O=c1[nH]cnc2c1ncn2[C@H]1CC[C@@H](CO)O1 | RT-D67N K70R K172R | MT-4 | IIIB | 0.812
O=c1cc(Cc2c(F)cccc2F)nc(SC2CCCC2)[nH]1 | RT-Y181C | MT-4 | - | 18
CCOCn1c(Cc2ccccc2)c(C(C)C)c(=O)[nH]c1=O | RT-Y181C | MT-4 | - | 250
CC(C)=CCN1Cc2cc(Cl)cc3[nH]c(=S)n(c23)C[C@@H]1C | RT-E138A S162C E169D T200A L214F | MT-4 | HXB2 (RT E138A S162C E169D T200A L214F) Clinical isolate | 9
CN(C)C(=O)Oc1nsnc1-c1c(Cl)cccc1Cl | RT-Y181C | MT-4 | IIIB-R (RT-Y181C) | >950
CC(C)=CCn1cc2c(c1)S(=O)(=O)c1cc(Cl)ccc1NC2=O | RT-Y181C | MT-4 | Clinical isolate | ≥100
Fc1cccc(F)c1C1OCc2nc3ccccc3n21 | RT-L100I | CEM | TIBO R82150-resistant (RT L100I) | 1.73
c1ncc(CN2CCCNCCNCCCNCC2)cc1CN1CCCNCCNCCCNCC1 | AMD3100-resistant | MT-4 | NL4-3 | 5
CC(C)c1nc(CN(C)C(=O)N[C@H](C(=O)N[C@@H](Cc2ccccc2)C[C@H](O)[C@H](Cc2ccccc2)NC(=O)OCc2cncs2)C(C)C)cs1 | RT K70R T215Y 69SS A62V E79K V118I M184V E203K L210W | MT-4 | NRTI resistant | 1.3
c1cc(CN2CCCNCCNCCCNCC2)ccc1CN1CCCNCCNCCCNCC1 | D-CA-resistant | MT-4 | NL4-3 | 2
Cc1cn([C@H]2C[C@H](N=[N+]=[N-])[C@@H](CO)O2)c(=O)[nH]c1=O | RT-Y181C | MT-2 | N119 nevirapine-resistant (RT Y181C) | 2.4
Cc1cn([C@@H]2O[C@H](CO[Si](C)(C)C(C)(C)C)C3(OS(=O)(=O)C=C3N)[C@H]2O[Si](C)(C)C(C)(C)C)c(=O)n(C)c1=O | RT-E138K | MT-4 | IIIB | 437
Cc1cc(C)cc(S(=O)(=O)c2c(C(=O)NNCCO)[nH]c3ccc(Cl)cc23)c1 | RT-Y181C | MT-4 | - | 40
CCCCNc1nc(C(C)c2c(F)cccc2F)cc(=O)[nH]1 | RT-Y181C | MT-4 | - | 20
Nc1nc(=O)n([C@@H]2CS[C@H](CO)O2)cc1F | RT-M184I | MT-4 | RF | 160
CCc1c(C)[nH]c(=O)c(N(C)C)c1C(=O)c1cccc(/C=C/C#N)c1 | RT-Y181C | MT-4 | - | 16
O=C1c2ccccc2C(=O)N1CCOC(=S)N(C(=O)c1ccccc1)c1ccc(Cl)cc1 | RT-K103N Y181C | MT-4 | A17 | >1000
CNc1cccc2c1nc(-c1c(F)cccc1F)n2Cc1c(F)cccc1F | RT-Y181C | MT-4 | - | 1.58
Fc1cccc(F)c1C1SCc2nc3ccccc3n21 | RT-L100I | CEM | IIIB | 2.25
COC(=O)N[C@@H](Cc1c[nH]c2ccccc12)C(=O)NCCCC[C@@H](CO)N(CC(C)C)S(=O)(=O)c1ccc(N)cc1 | SQV-resistant (PR G48V L90M) | MT-4 | NL4-3 | 2.6
Nc1nc(NC2CC2)c2ncn([C@H]3C=C[C@@H](CO)O3)c2n1 | RT-M184V | PBMC | BRU PITT.(RT-M184V) | 0.5
Cc1cc(CC#N)cc(C)c1Nc1ccnc(Nc2ccc(C#N)cc2)n1 | RT-Y188L | MT-4 | - | 313.7
Cc1cn([C@H]2C[C@H](N=[N+]=[N-])[C@@H](CO)O2)c(=O)[nH]c1=O | RT-Y181C | MT-4 | IIIB-R (RT-Y181C) | 0.697
O=[N+]([O-])c1cc(CN2CCCNCCNCCCNCC2)cc(CN2CCCNCCNCCCNCC2)c1 | AMD3100-resistant | MT-4 | NL4-3 | 22.4
Cc1c(C(C)c2c(F)cccc2F)nc(NC(C)C)[nH]c1=O | RT-Y181C | MT-4 | - | 29
CCN(C)C(=O)Oc1nsnc1-c1c(Cl)cccc1Cl | RT-Y181C | MT-4 | IIIB-R (RT-Y181C) | 151
O=C1c2ccccc2C(=O)N1CCOC(=S)N(C(=O)c1cccs1)c1ccc(Cl)cc1 | RT-Y181C | MT-4 | N119 nevirapine-resistant (RT Y181C) | >12500
c1cc(CN2CCCNCCCNCCNCCC2)cc(CN2CCCNCCCNCCNCCC2)c1 | AMD3100-resistant | MT-4 | NL4-3 | >125
CC(=O)N(C)c1cccc2c1nc(-c1c(F)cccc1F)n2Cc1c(F)cccc1F | RT-L100I | MT-4 | - | 0.97
CCc1c(C)[nH]c(=O)c(N(C)C)c1C(=O)c1cccc(Br)c1 | RT-E138K | MT-4 | - | 2.5
Cc1cccc(S(=O)(=O)c2c(C(=O)NNCCO)[nH]c3ccc(Cl)cc23)c1 | RT-K103N Y181C | MT-4 | - | >2857
Cc1cn([C@H]2C[C@H](N=[N+]=[N-])[C@@H](COC(=O)NCCSC(=O)OC[C@H]3O[C@@H](n4cc(C)c(=O)[nH]c4=O)C[C@@H]3N=[N+]=[N-])O2)c(=O)[nH]c1=O | RT-K103R V179D P225H | MT-4 | EFV-resistant (RT K103R V179D P225H) | 0.2
c1ccc(-c2cc(CN3CCCNCCNCCCNCC3)cc(CN3CCCNCCNCCCNCC3)c2)cc1 | AMD3100-resistant | MT-4 | NL4-3 | 2.1
CCn1c(=O)c(C)cn([C@@H]2O[C@H](CO[Si](C)(C)C(C)(C)C)C3(OS(=O)(=O)C=C3N)[C@H]2O[Si](C)(C)C(C)(C)C)c1=O | RT-E138K | MT-4 | IIIB | 2032
Cc1cc(C)c(Nc2nc(Nc3ccc(C#N)cc3)ncc2Cl)c(C)c1 | RT-K103N Y181C | MT-4 | NNRTI-resistant (RT K103N Y181C) | 38
O=C1c2ccccc2C(=O)N1CCOC(=S)N(C(=O)c1ccco1)c1ccc(Cl)cc1 | RT-K103N Y181C | MT-4 | A17 | >14300
Fc1cccc(F)c1Cn1c(-c2c(F)cccc2F)nc2c(Br)cccc21 | RT-Y181C | MT-4 | - | 16.8
Cc1cn([C@H]2C=C[C@@H](CO)O2)c(=O)[nH]c1=O | RT-Q151M | MT-2 | - | 4.6
CC(=O)Nc1cccc2c1nc(-c1c(F)cccc1F)n2Cc1c(F)cccc1F | RT-V108I | MT-4 | - | 17.1
CCc1c(Sc2cc(C)cc(C)c2)n(COCCOP(=O)(O)OC[C@H]2O[C@@H](n3cc(C)c(=O)[nH]c3=O)C[C@@H]2N=[N+]=[N-])c(=O)[nH]c1=O | RT-Y181C | MT-4 | IIIB MKC-442-resistant (RT Y181C) | 1
COC(=O)c1cccc2c1nc(-c1c(F)cccc1F)n2Cc1c(F)cccc1F | RT-Y188H | MT-4 | - | 1.58
CN(C)C(=O)Oc1nsnc1-c1ccccc1Cl | RT-Y181C | MT-4 | IIIB-R (RT-Y181C) | >368
Cc1cc(C)cc(S(=O)(=O)c2c(C(N)=O)[nH]c3ccc(Cl)cc23)c1 | RT-Y181C | MT-4 | - | 8
CCc1c(C)[nH]c(=O)c(-n2cccc2)c1Cc1cc(C)cc(C)c1 | RT-Y188L | MT-4 | Recombinant | 158
CCOCn1c(Cc2ccccc2)c(C(C)C)c(=O)[nH]c1=O | RT-K103N | - | HXB23(RT-K103N | 210
CC(C)CN(C[C@@H](O)[C@H](Cc1ccccc1)NC(=O)O[C@H]1CO[C@H]2OCC[C@H]21)S(=O)(=O)c1cccc(N)c1 | PR-L10I M46I A71V I84V | MT-4 | PI-resistant (PR L10I M46I A71V I84V) M1 | 34
Cc1cn([C@H]2C[C@H](N=[N+]=[N-])[C@@H](CO)O2)c(=O)[nH]c1=O | RT-D67N K70R K172R | MT-4 | IIIB | 25.5
C/C(=C\C#N)c1cc(C)c(Nc2ccnc(Nc3ccc(C#N)cc3)n2)c(C)c1 | RT-L100I K103N | MT-4 | - | 25.1
CCc1c(C)[nH]c(=O)c(N(C)C)c1C(=O)c1cc(Cl)cc(Cl)c1 | RT-K103N | MT-4 | - | 6.5
O=c1[nH]cnc2c1ncn2[C@H]1CC[C@@H](CO)O1 | RT-E138A | MT-4 | Recombinant mutant | 0.9
c1ccc(-c2cc(CN3CCCNCCNCCCNCC3)ccc2CN2CCCNCCNCCCNCC2)cc1 | AMD3100-resistant | MT-4 | NL4-3 | 90.3
CCc1c(C)[nH]c(=O)c(N(C)C)c1C(=O)c1cccc(C=O)c1 | RT-K103N | MT-4 | - | 15.7
CC(=O)Nc1cccc2c1nc(-c1c(F)cccc1F)n2Cc1c(F)cccc1F | RT-K101E | MT-4 | - | >40
O=c1cc(Cc2c(F)cccc2F)nc(NC2CCCC2)[nH]1 | RT-Y181C | MT-4 | - | 10
CCc1c(C)[nH]c(=O)c(N(C)C)c1Cc1cccc(F)c1 | RT-K103N | MT-4 | - | 31.5
Cc1ccc(S(=O)(=O)c2c(C(=O)NNCCO)[nH]c3ccc(Cl)cc23)c(C)c1 | RT-Y181C | MT-4 | - | 12.5
O=C1c2ccccc2C(=O)N1CCOC(=S)N(C(=O)c1ccco1)c1ccc([N+](=O)[O-])cc1 | RT-K103N Y181C | MT-4 | A17 | >12500
Nc1cccc2c1nc(-c1c(F)cccc1F)n2Cc1c(F)cccc1F | RT-L74V | MT-4 | - | 0.6
CCCCCCN(C)C(=O)Oc1nsnc1-c1c(Cl)cccc1Cl | RT-Y181C | MT-4 | IIIB-R (RT-Y181C) | >158
N#Cc1ccc(Nc2nc(N)nc(Cc3c(Cl)cccc3Cl)n2)cc1 | RT-K103N Y181C | MT-4 | NNRTI-resistant (RT K103N Y181C) | 233
CCc1cc(CCc2nc3ccccc3o2)c(=O)[nH]c1C | RT-Y181C | MT-4 | IIIB-R (RT-Y181C) | 8550
c1cc(CCN2CCCNCCNCCCNCC2)ccc1CCN1CCCNCCNCCCNCC1 | AMD3100-resistant | MT-4 | NL4-3 | >0.164
Cc1cn([C@H]2C=C[C@@H](CO)O2)c(=O)[nH]c1=O | RT-K103R V179D P225H | MT-4 | EFV-resistant (RT K103R V179D P225H) | 0.24
O=c1[nH]cnc2c1ncn2[C@H]1CC[C@@H](CO)O1 | RT-M184I | MT-4 | RF | 1.61
Cc1cn([C@H]2C[C@H](N=[N+]=[N-])[C@@H](CO)O2)c(=O)[nH]c1=O | RT-Q151M A62V | MT-2 | - | >20
CC(C)=CCN1Cc2cccc3[nH]c(=S)n(c23)C[C@@H]1C | RT-Y188L | MT-4 | 1506-RS (RT-Y188L) | >556
Fc1c(F)c(CN2CCCNCCNCCCNCC2)c(F)c(F)c1CN1CCCNCCNCCCNCC1 | AMD3100-resistant | MT-4 | NL4-3 | 5.33
Fc1cccc(F)c1Cn1c(-c2c(F)cccc2F)nc2c(Br)cccc21 | RT-Y181C | MT-4 | - | 16.8
COc1c(O)c(Cl)c2c(c1OC)-c1c(c(Cl)c(O)c(OC)c1OC)C[C@H](C)[C@H](C)C2 | RT-L100I | MT-4 | TIBO-resistant L100I (RT-L100I) | 1
Cc1cn([C@H]2C=C[C@@H](COC(=O)NCCSC(=O)OC[C@@H]3C=C[C@H](n4cc(C)c(=O)[nH]c4=O)O3)O2)c(=O)[nH]c1=O | RT-Y181C | MT-4 | NNRTI-resistant (RT Y181C) | 0.16
c1ccc(C2OCc3nc4ccccc4n32)cc1 | RT-Y181C | CEM | Pyridinone-resistant (RT Y181C) | ≥2
CCOC(=O)c1c[nH]cc1S(=O)(=O)c1cc(Cl)ccc1N | RT-Y181C | MT-4 | Clinical isolate | ≥23

Repeating the first 9 entries:

structure	mutations	cell line	strain	result
O=c1[nH]cnc2c1ncn2[C@H]1CC[C@@H](CO)O1	RT-D67N K70R K172R	MT-4	IIIB	0.812
O=c1cc(Cc2c(F)cccc2F)nc(SC2CCCC2)[nH]1	RT-Y181C	MT-4	-	18
CCOCn1c(Cc2ccccc2)c(C(C)C)c(=O)[nH]c1=O	RT-Y181C	MT-4	-	250
CC(C)=CCN1Cc2cc(Cl)cc3[nH]c(=S)n(c23)C[C@@H]1C	RT-E138A S162C E169D T200A L214F	MT-4	HXB2 (RT E138A S162C E169D T200A L214F) Clinical isolate	9
CN(C)C(=O)Oc1nsnc1-c1c(Cl)cccc1Cl	RT-Y181C	MT-4	IIIB-R (RT-Y181C)	>950
CC(C)=CCn1cc2c(c1)S(=O)(=O)c1cc(Cl)ccc1NC2=O	RT-Y181C	MT-4	Clinical isolate	≥100
Fc1cccc(F)c1C1OCc2nc3ccccc3n21	RT-L100I	CEM	TIBO R82150-resistant (RT L100I)	1.73
c1ncc(CN2CCCNCCNCCCNCC2)cc1CN1CCCNCCNCCCNCC1	AMD3100-resistant	MT-4	NL4-3	5
CC(C)c1nc(CN(C)C(=O)N[C@H](C(=O)N[C@@H](Cc2ccccc2)C[C@H](O)[C@H](Cc2ccccc2)NC(=O)OCc2cncs2)C(C)C)cs1	RT K70R T215Y 69SS A62V E79K V118I M184V E203K L210W	MT-4	NRTI resistant	1.3